# Source: PubChem BioAssay AID624099 (ICCB-Longwood, 2012)
# Purpose: 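Host factors E2 relies on to silence an HPV18 LCR reporter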 (primary screen)
# Cells: human C33A cervical carcinoma cells (HPV-negative) stably expressing BPV1 E2 and an HPV18 LCR luciferase reporter
# Knock-down reagent: siRNA pool against human genes, 40 nM
# Duration: 72 h
# Detection: 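HPV18 LCR reporter light per well, converted to plate-wise z-scores that exclude control wells, and averaged over triplicate plates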
# Scale: mean z-score and z-score: higher = stronger reporter signal, weaker E2 silencing
# Active means: 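Hit if mean z-score reaches 2 and two or more of three replicate z-scores also reach 2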
# Here is a random part of about 21,000 reagents tested. 497 of all reagents (2.4%) were called active. 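Higher z means weaker E2 silencing; only reporter increases were scored, and knock-downs that hurt cell survival may mask genuine repressor factors.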 Unmarked entries are inactive. No sequences are given here.
target,mean z-score,"z-score, replicate A","z-score, replicate B","z-score, replicate C"
UBE2M (ubiquitin conjugating enzyme E2 M),-0.66,-0.16,-0.66,-1.16
TMEM215 (transmembrane protein 215),-0.32,-0.13,-0.29,-0.55
"CORIN (corin, serine peptidase)",0.91,1.21,1.19,0.34
TULP3 (TUB like protein 3),-0.25,-0.27,-0.2,-0.29
FOXP4 (forkhead box P4),1.01,0.65,1.1,1.27
SLC29A3,-0.04,-0.12,0.54,-0.55
APOBEC3B (apolipoprotein B mRNA editing enzyme catalytic subunit 3B),-0.31,0.1,-0.38,-0.65
LINC01588 (long independently transcribed non-coding RNA 1588),-1.14,-0.89,-1.3,-1.22
PPP2R1A (protein phosphatase 2 scaffold subunit Aalpha),1.51,1.45,1.5,1.57
SHH (sonic hedgehog signaling molecule),-0.69,-0.89,0.09,-1.28
FSTL1 (follistatin like 1),0.22,-0.03,0.23,0.46
RP1L1 (RP1 like 1),-0.02,0.01,-0.09,0.02
MAPKAPK5-AS1 (MAPKAPK5 antisense RNA 1),0.28,0.02,0.35,0.47
ATP6V0E2-AS1 (ATP6V0E2 antisense RNA 1),0.09,0.2,0.18,-0.12
CREB3L3 (cAMP responsive element binding protein 3 like 3),-0.41,-0.3,-0.55,-0.39
LINC02487 (long independently transcribed non-coding RNA 2487),0.23,-0.15,0.91,-0.06
WASHC2C (WASH complex subunit 2C),-1.99,-1.78,-2.32,-1.86
LOC390234 (retired record),1.57,1.44,1.61,1.67
NDUFA10 (NADH:ubiquinone oxidoreductase subunit A10),-1.21,-1.01,-1.29,-1.35
THAP5 (THAP domain containing 5),-0.43,-0.98,-0.1,-0.22
WBP2P1 (WW domain binding protein 2 pseudogene 1),0.42,0.73,0.46,0.07
PRAMEF4 (PRAME family member 4),0.73,0.75,0.66,0.78
TNKS2 (tankyrase 2),0.83,0.66,1.15,0.69
LINC00469 (long independently transcribed non-coding RNA 469),-0.03,0.69,-0.61,-0.17
PER1 (period circadian regulator 1),-0.95,-0.96,-1.23,-0.66
ACTN3 (actinin alpha 3),-0.6,-0.91,-0.56,-0.31
LOC389301 (retired record),0.8,0.94,0.93,0.54
CCNA2 (cyclin A2),-0.73,-0.82,-0.7,-0.68
TIGD7 (tigger transposable element derived 7),0.07,-0.14,0.11,0.25
"NPRL2 (NPR2 like, GATOR1 complex subunit)",1.2,1.01,1.18,1.41
TGM3 (transglutaminase 3),0.11,0.09,0.13,0.12
ADSS2 (adenylosuccinate synthase 2),-0.21,0,-0.33,-0.31
ZNF528 (zinc finger protein 528),-1.63,-1.6,-1.75,-1.53
OGFOD3,1.08,1.14,0.95,1.15
C4BPA (complement component 4 binding protein alpha),-0.46,-0.29,-0.3,-0.78
C3orf18 (chromosome 3 open reading frame 18),-0.64,-0.08,-0.7,-1.14
ZNF354A (zinc finger protein 354A),-0.38,-0.43,-0.5,-0.21
SDR16C5 (short chain dehydrogenase/reductase family 16C member 5),-1.64,-1.91,-1.29,-1.7
MALT1 (MALT1 paracaspase),-0.44,-0.75,-0.47,-0.11
TTC27 (tetratricopeptide repeat domain 27),-0.58,-0.74,-0.75,-0.25
KLF3-AS1 (KLF3 antisense RNA 1),-0.29,-0.13,-0.46,-0.27
CCNF (cyclin F),0.26,0.09,0.28,0.42
"GBE1 (1,4-alpha-glucan branching enzyme 1)",-0.64,-0.9,-0.77,-0.26
AMTN (amelotin),0.87,1.24,0.91,0.46
PI4KB (phosphatidylinositol 4-kinase beta),-1.46,-1.32,-1.61,-1.46
ENAM (enamelin),-0.01,-0.42,-0.09,0.47
CD4 (CD4 molecule),1.19,0.54,1.69,1.36
NLRC5 (NLR family CARD domain containing 5),-0.68,-0.82,-0.81,-0.41
PEX3 (peroxisomal biogenesis factor 3),-0.65,-0.46,-0.56,-0.94
"OPN1SW (opsin 1, short wave sensitive)",-0.82,-0.81,-0.82,-0.82
EBF1 (EBF transcription factor 1),0.91,0.69,0.84,1.2
LOC391733 (retired record),0.14,-0.14,0.21,0.36
HEPH (hephaestin),1.26,1.2,1.29,1.28
SPIC (Spi-C transcription factor),-0.04,-0.1,-0.05,0.02
SLC6A8,-0.87,-0.99,-0.66,-0.96
BMPR1B (bone morphogenetic protein receptor type 1B),-1.08,-0.51,-1.29,-1.44
LOC388819 (retired record),1.5,1.35,1.99,1.16

Part of the list above, set out differently.
ADSS2 (adenylosuccinate synthase 2): mean z-score = -0.21; z-score, replicate A = 0; z-score, replicate B = -0.33; z-score, replicate C = -0.31
ZNF528 (zinc finger protein 528): mean z-score = -1.63; z-score, replicate A = -1.6; z-score, replicate B = -1.75; z-score, replicate C = -1.53
OGFOD3: mean z-score = 1.08; z-score, replicate A = 1.14; z-score, replicate B = 0.95; z-score, replicate C = 1.15
C4BPA (complement component 4 binding protein alpha): mean z-score = -0.46; z-score, replicate A = -0.29; z-score, replicate B = -0.3; z-score, replicate C = -0.78
C3orf18 (chromosome 3 open reading frame 18): mean z-score = -0.64; z-score, replicate A = -0.08; z-score, replicate B = -0.7; z-score, replicate C = -1.14
ZNF354A (zinc finger protein 354A): mean z-score = -0.38; z-score, replicate A = -0.43; z-score, replicate B = -0.5; z-score, replicate C = -0.21
SDR16C5 (short chain dehydrogenase/reductase family 16C member 5): mean z-score = -1.64; z-score, replicate A = -1.91; z-score, replicate B = -1.29; z-score, replicate C = -1.7
